Paper PMC11890623, “Pseudomonas aeruginosa acyl-CoA dehydrogenases and structure-guided inversion of their substrate specificity” (Nature Communications, 2025)

By UniProt entry, the sequences of proteins in these tests, tags left out. Residues count along the entry.
UniProt Q9I612, 1-601 limits assumed: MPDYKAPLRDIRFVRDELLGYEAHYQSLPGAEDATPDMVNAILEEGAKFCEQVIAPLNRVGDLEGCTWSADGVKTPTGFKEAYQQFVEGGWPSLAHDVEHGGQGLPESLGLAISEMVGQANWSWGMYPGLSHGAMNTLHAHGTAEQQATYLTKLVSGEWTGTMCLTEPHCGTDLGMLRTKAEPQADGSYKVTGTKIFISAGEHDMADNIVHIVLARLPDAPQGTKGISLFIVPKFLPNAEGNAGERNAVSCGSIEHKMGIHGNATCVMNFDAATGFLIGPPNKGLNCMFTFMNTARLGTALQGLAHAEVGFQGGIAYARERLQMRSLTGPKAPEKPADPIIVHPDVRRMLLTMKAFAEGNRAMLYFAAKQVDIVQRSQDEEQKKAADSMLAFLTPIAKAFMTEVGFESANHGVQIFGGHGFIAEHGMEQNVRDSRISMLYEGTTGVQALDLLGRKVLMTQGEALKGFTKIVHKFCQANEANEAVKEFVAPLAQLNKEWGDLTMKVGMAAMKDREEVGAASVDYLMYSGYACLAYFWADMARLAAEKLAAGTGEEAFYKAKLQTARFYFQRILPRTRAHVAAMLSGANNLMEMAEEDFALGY
UniProt Q9I610, 1-592 limits assumed: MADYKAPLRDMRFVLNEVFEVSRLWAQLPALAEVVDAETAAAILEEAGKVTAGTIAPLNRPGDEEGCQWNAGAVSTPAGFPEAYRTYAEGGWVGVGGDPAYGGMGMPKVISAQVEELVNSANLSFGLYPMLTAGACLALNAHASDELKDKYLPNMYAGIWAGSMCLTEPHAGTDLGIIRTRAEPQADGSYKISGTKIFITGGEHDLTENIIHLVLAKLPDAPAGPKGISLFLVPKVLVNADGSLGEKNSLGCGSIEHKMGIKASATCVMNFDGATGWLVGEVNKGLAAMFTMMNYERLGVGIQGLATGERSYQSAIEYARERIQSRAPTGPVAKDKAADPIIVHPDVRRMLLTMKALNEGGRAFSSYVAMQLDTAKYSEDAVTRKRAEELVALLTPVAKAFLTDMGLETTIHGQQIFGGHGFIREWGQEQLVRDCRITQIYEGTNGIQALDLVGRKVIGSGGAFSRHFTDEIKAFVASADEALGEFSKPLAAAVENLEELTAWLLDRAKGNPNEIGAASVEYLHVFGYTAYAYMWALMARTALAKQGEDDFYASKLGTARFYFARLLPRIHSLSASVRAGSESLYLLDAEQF

Experiments:
FadE1 = FadE1 (Pseudomonas aeruginosa, UniProt Q9I612); experiment: purified enzyme dehydrogenase assay (ferrocenium reduction) with C8-CoA substrate; assay type: biochemical; conditions: tested form: TFA
FadE2 = FadE2 (Pseudomonas aeruginosa, UniProt Q9I610); experiment: as above; assay type: biochemical; conditions: tested form: TFA

C=C(CCCCC)CC(=O)SCCNC(=O)CCNC(=O)[C@H](O)C(C)(C)COP(=O)(O)OP(=O)(O)OC[C@H]1O[C@@H](n2cnc3c(N)ncnc32)[C@H](O)[C@@H]1OP(=O)(O)O
IC50 (FadE1): 1.4 µM | IC50 (FadE2): 2 µM
